Anti-infective test results gathered from many reports (values: NIAID ChemDB through PubChem).

Shared fields: whole-cell or culture tests; agent: Candida albicans; measure: MIC

An empty or dashed field is not shown.

structure | method | strain | conditions | value
CC(C)(O)c1cn(-c2ccc(Cl)cc2)nn1 | broth dilution | URM 4986 | - | 128 µg/mL
CCC(C)CC(C)CCCCCCCCC(=O)N[C@H]1C[C@@H](O)[C@H](NCCN)NC(=O)[C@@H]2[C@@H](O)CCN2C(=O)[C@H]([C@H](O)CCN)NC(=O)[C@H]([C@H](O)[C@@H](O)c2ccc(O)cc2)NC(=O)[C@@H]2C[C@@H](O)CN2C(=O)[C@H]([C@@H](C)O)NC1=O | broth dilution | C375 | - | 0.5 µg/mL
Nn1c(SCC(O)(Cn2cncn2)c2ccc(Cl)cc2Cl)nnc1-c1ccncc1 | broth dilution | IRFC 36 | - | >64 µg/mL
C[C@@H]1C[C@@H](O)c2c(O[C@H]3O[C@H](CO)[C@@H](O)[C@H]3O)cccc2O1 | turbidity | ATCC 10231 | - | >128 µg/mL
CCC(C)CC(C)CCCCCCCCC(=O)N[C@H]1C[C@@H](O)[C@H](NCCN)NC(=O)[C@@H]2[C@@H](O)CCN2C(=O)[C@H]([C@H](O)CCN)NC(=O)[C@H]([C@H](O)[C@@H](O)c2ccc(O)cc2)NC(=O)[C@@H]2C[C@@H](O)CN2C(=O)[C@H]([C@@H](C)O)NC1=O | broth dilution | 10 isolates | pH 7 | 0.06 µg/mL
Nn1c(SCC(O)(Cn2cncn2)c2ccc(F)cc2F)nnc1-c1ccc(F)cc1 | broth dilution | IRFC 36 | - | >64 µg/mL
C[C@@H]1C(=O)N(CCc2ccccc2)C(=O)[C@@H]1C | broth dilution / turbidity | ATCC 10231 | - | 15.6 µg/mL
Cc1ccc(-c2nnc(SCC(O)(Cn3cncn3)c3ccc(Cl)cc3Cl)n2N)cc1 | broth dilution | IRFC 36 | - | >64 µg/mL
C[C@@H](c1ncncc1F)[C@](O)(Cn1cncn1)c1ccc(F)cc1F | broth dilution | 10 isolates | pH 4 | 2 µg/mL
Nn1c(SCC(O)(Cn2cncn2)c2ccc(Cl)cc2Cl)nnc1-c1ccc(Cl)cc1Cl | broth dilution | IRFC 36 | - | 2 µg/mL
C[C@@H]1CC(=O)N(c2ccc(F)cc2)C1=O | broth dilution / turbidity | ATCC 10231 | - | 62.5 µg/mL
O=c1c(OC2CCCC2)c(N2CCN(S(=O)(=O)NCc3ccccc3)CC2)cnn1-c1cccc(Cl)c1 | broth dilution | CLY16996 | - | 8 µg/mL
Nn1c(SCC(O)(Cn2cncn2)c2ccc(Cl)cc2Cl)nnc1-c1ccc(Cl)cc1 | broth dilution | IRFC 192 | - | >64 µg/mL
CC1CC(=O)N(c2ccc([N+](=O)[O-])cc2)C1=O | broth dilution / turbidity | ATCC 10231 | - | 250 µg/mL
Nn1c(SCC(O)(Cn2cncn2)c2ccc(F)cc2F)nnc1-c1cccc(Br)c1 | broth dilution | PTCC 6027 | - | >64 µg/mL
CC[C@@H]([C@H](C)O)n1ncn(-c2ccc(N3CCN(c4ccc(OC[C@@H]5CO[C@@](Cn6cncn6)(c6ccc(F)cc6F)C5)cc4)CC3)cc2)c1=O | broth dilution | 10 isolates | pH 4 | 0.03 µg/mL
Cc1ccc(N2C(=O)CC(C)C2=O)cc1 | broth dilution / turbidity | ATCC 10231 | - | 250 µg/mL
Nn1c(SCC(O)(Cn2cncn2)c2ccc(Cl)cc2Cl)nnc1-c1ccc(F)cc1 | broth dilution | IRFC 37 | - | >64 µg/mL
COC(=O)[C@H]1[C@@H]2C[C@@H](O[C@@H]3O[C@H](C)[C@@H](O)[C@H](N)[C@@H]3O)/C=C/C=C/C=C/C=C/C=C/C=C/C=C/[C@H](C)[C@@H](O)[C@H](C)[C@H](C)OC(=O)C[C@H](O)C[C@H](O)[C@@H](O)CC[C@H](O)C[C@H](O)C[C@](O)(C[C@@H]1O)O2 | broth dilution | 10 isolates | pH 5 | 4 µg/mL
C[C@@H]1CC(=O)N(CCc2ccccc2)C1=O | broth dilution / turbidity | ATCC 10231 | - | 31.3 µg/mL
Cc1cc2c(O[C@H]3O[C@H](CO)[C@@H](O)[C@H]3O)ccc(O)c2c(=O)o1 | turbidity | ATCC 10231 | - | >128 µg/mL

Again, the opening 2 rows:

structure	method	strain	conditions	value
CC(C)(O)c1cn(-c2ccc(Cl)cc2)nn1	broth dilution	URM 4986	-	128 µg/mL
CCC(C)CC(C)CCCCCCCCC(=O)N[C@H]1C[C@@H](O)[C@H](NCCN)NC(=O)[C@@H]2[C@@H](O)CCN2C(=O)[C@H]([C@H](O)CCN)NC(=O)[C@H]([C@H](O)[C@@H](O)c2ccc(O)cc2)NC(=O)[C@@H]2C[C@@H](O)CN2C(=O)[C@H]([C@@H](C)O)NC1=O	broth dilution	C375	-	0.5 µg/mL

Rows are shuffled and stem from different studies.